Data reported in ChEMBL document CHEMBL4495565, “Cytopathic SARS-Cov2 screening on VERO-E6 cells in a large repurposing effort” (2020).

System: SARS-CoV-2
Assay: microbe, parasite or virus in culture
Type: functional, organism-based, Chlorocebus sabaeus
Conditions: Severe acute respiratory syndrome coronavirus 2, Vero C1008, 48 h

O=C(O)Cc1cccc(OCCCN(Cc2cccc(C(F)(F)F)c2Cl)CC(c2ccccc2)c2ccccc2)c1
IC50: 27.7 µM
